# Measurements as given in patent US20250312349A1, “COMPOSITION AND METHODS OF TREATING INTRACELLULAR PATHOGEN INFECTION” (UNIVERSITY HOSPITALS CLEVELAND MEDICAL CENTER, priority 2024, published 2025).
# Test system: IFN-γ, TNF-α, IL-12 p40, NOS2, anti-T. gondii IgG
# Test: Cytokine mRNA in eye and brain, serum cytokines and anti-T. gondii IgG in infected treated mice
compound,measurement,setting,value
"CN1CCN(CCOc2cc(OC3CCOCC3)c3c(Nc4c(Cl)ccc5c4OCO5)ncnc3c2)CC1 [Saracatinib, N-(5-chloro-1,3-benzodioxol-4-yl)-7-(2-(4-methylpiperazin-1-yl)ethoxy)-5-(tetrahydro-2H-pyran-4-yloxy)quinazolin-4-amine]",serum IFN-γ levels,ELISA,modest increase
same,serum levels of TNF-α and IL-12 p40,ELISA,did not affect
same,"local expression of IFN-γ, TNF-α, IL-12 p40 and NOS2","mRNA in eye and brain, RT-qPCR",not the result of increased local expression
same,Anti-T. gondii IgG levels,"serum, ELISA",unchanged
